Laboratory results taken from article PMC2677997 (Bioorganic & medicinal chemistry, 2009).

Chains of the proteins cited; added tags and fusions are not shown. Residues count along the entry.
UniProt P0DPI0, 1-425 limits assumed: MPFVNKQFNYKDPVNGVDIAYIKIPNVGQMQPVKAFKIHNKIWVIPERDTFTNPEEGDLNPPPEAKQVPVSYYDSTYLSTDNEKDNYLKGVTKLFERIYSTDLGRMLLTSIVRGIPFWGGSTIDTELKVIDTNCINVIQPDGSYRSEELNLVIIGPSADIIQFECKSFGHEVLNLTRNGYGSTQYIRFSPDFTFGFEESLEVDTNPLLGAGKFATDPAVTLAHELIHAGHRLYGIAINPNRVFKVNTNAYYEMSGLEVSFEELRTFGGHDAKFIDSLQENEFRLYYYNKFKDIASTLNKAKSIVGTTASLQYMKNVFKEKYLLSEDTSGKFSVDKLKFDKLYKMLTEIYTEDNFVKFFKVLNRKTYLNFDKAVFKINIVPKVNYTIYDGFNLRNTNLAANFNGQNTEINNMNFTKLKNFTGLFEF

Target: BoNT/A LC (BoNTA-LC 1-425) (Clostridium botulinum, UniProt P0DPI0)
Type: biochemical
Conditions: read-out: IC50 (μM) BoNT/A

With O=C(CS)Nc1cc(-c2cccc(Cl)c2)n[nH]1 [Compound 12g, N-(3-(3-Chlorophenyl)-1H-pyrazol-5-yl)-2-mercaptoacetamide] the IC50 was 5.6 ± 0.2 µM.
